Results of unrelated studies side by side (data: NIAID ChemDB).

An empty or dashed field is not shown. MIC bound: limit read from a one-dose screen. Inhibition is in % at the dose shown (toxicity tests: loss of growth or viability). Rows are shuffled and stem from different studies. A number after MIC or MFC names an inhibition level or a share of isolates. ECn is the concentration giving n% inhibition of infection, replication or growth. ICn is the concentration giving n% inhibition.

{"compound": "Cc1cc(C)cc(-c2cncc(N3CCN(c4cccc(C)c4C)CC3)n2)c1", "test": "target", "agent": "Cytomegalovirus", "protein": "UL97 kinase", "endpoint": "IC50", "value": "<100 µM"}
{"compound": "CCOC(=O)CCCCCBr", "test": "culture", "agent": "Mycobacterium tuberculosis", "strain": "H37Rv", "endpoint": "MIC", "value": ">100 µg/mL"}
{"compound": "Cc1ccccc1-c1cncc(N2CCN(c3cccc(Cl)c3)CC2)n1", "test": "target", "agent": "Cytomegalovirus", "protein": "UL97 kinase", "endpoint": "inhibition", "dose": "10 µM", "value": ">15%"}
{"compound": "COc1cc2nccc3c4ccccc4n(c1=O)c23", "test": "culture", "agent": "Mycobacterium tuberculosis", "strain": "H37Rv", "read by": "resazurin", "endpoint": "MIC bound", "value": ">6.25 µg/mL"}
{"compound": "CCO/N=C/c1ccc(OCCC2CCN(c3ccc(C)nn3)CC2)cc1", "test": "culture", "agent": "Rhinovirus", "strain": "11757 (ICAM-1 receptor group 16)", "cells": "KB", "read by": "neutral red", "endpoint": "EC50", "value": "0.008 µM"}
{"compound": "Cn1nnc2ccccc2c1=O", "test": "culture", "agent": "Mycobacterium tuberculosis", "strain": "H37Rv", "read by": "BACTEC", "endpoint": "inhibition", "dose": "12.5 µg/mL", "value": "0%"}
{"compound": "O=S(=O)([O-])c1ccc(O)c2ccccc12", "test": "culture", "agent": "Herpes simplex virus", "cells": "Human conjunctiva cells", "read by": "cytopathic effect", "endpoint": "inhibition", "dose": "10 µg/mL", "value": "0%"}
{"compound": "Fc1ccc(N2CCN(c3cncc(-c4ccc(-c5ccccc5)c(F)c4)n3)CC2)cc1", "test": "target", "agent": "Cytomegalovirus", "protein": "UL97 kinase", "endpoint": "IC50", "value": "<100 µM"}
{"compound": "C=CCc1ccc(OC)c(OC)c1", "test": "culture", "agent": "Candida tropicalis", "strain": "105", "read by": "turbidity", "endpoint": "MIC90", "value": "345 µg/mL"}
{"compound": "Nc1ccc(S(=O)(=O)c2ccc(N)c(Cl)c2)cc1", "test": "culture", "agent": "Mycobacterium tuberculosis", "strain": "H37Rv", "endpoint": "MIC", "value": "100 µg/mL"}
{"compound": "C#CC[C@@H](C(=O)N[C@H](/C=C/C(=O)OCC)C[C@@H]1CCNC1=O)n1cccc(NC(=O)c2cc(C)on2)c1=O", "test": "culture", "agent": "Rhinovirus", "strain": "Serotype 2", "cells": "H1-HELA", "read by": "cytopathic effect / XTT", "endpoint": "inhibition", "dose": "0.077 µM", "value": "90%"}
{"compound": "COc1ccc(C(=O)CN2CCN(CC(=O)c3ccc(OC)cc3)CC2)cc1", "test": "culture", "agent": "Mycobacterium tuberculosis", "strain": "H37Rv", "read by": "BACTEC", "endpoint": "MIC", "value": "≥12.8 µg/mL"}
{"compound": "CN(C)c1ccc(-c2cncc(N3CCN(c4cccc(C(F)(F)F)c4)CC3)n2)cc1", "test": "target", "agent": "Cytomegalovirus", "protein": "UL97 kinase", "endpoint": "IC50", "value": "<100 µM"}
{"compound": "COC(=O)C(=O)C(C(=O)C(c1ccccc1)c1ccccc1)c1nc2n(c1O)/C(=N/C(=O)Nc1ccc(Cl)cc1)N=N2", "test": "culture", "agent": "Mycobacterium tuberculosis", "strain": "H37Rv", "read by": "resazurin", "endpoint": "inhibition", "dose": "6.25 µg/mL", "value": "32%"}
{"compound": "Cc1ccc(C(=N)N)cc1.Cl", "test": "culture", "agent": "Mycobacterium tuberculosis", "strain": "H37Rv", "endpoint": "MIC", "value": ">100 µg/mL"}
{"compound": "COc1cc(C[C@H](C)[C@H](C)Cc2ccc(O)c(O)c2)ccc1O", "test": "culture", "agent": "Candida kefyr", "strain": "CCC 123-2000", "read by": "broth dilution", "endpoint": "MIC80", "value": "31.5 µg/mL"}
{"compound": "Oc1cc(Sc2ccccc2)c(O)cc1Sc1ccccc1", "test": "culture", "agent": "Mycobacterium tuberculosis", "strain": "H37Rv", "endpoint": "MIC", "value": ">100 µg/mL"}
{"compound": "O=S(=O)(O)CO", "test": "culture", "agent": "Adenovirus", "strain": "TYPE 3", "cells": "Human embryonic lung cells", "read by": "cytopathic effect", "endpoint": "inhibition", "dose": "5 µg/mL", "value": "0%"}
{"compound": "CCOC(=O)c1ccc(Br)c([N+](=O)[O-])c1", "test": "culture", "agent": "Mycobacterium tuberculosis", "strain": "H37Rv", "endpoint": "MIC", "value": ">100 µg/mL"}
{"compound": "O=S(=O)([O-])c1ccc2c(O)cc(S(=O)(=O)[O-])cc2c1", "test": "culture", "agent": "Rhinovirus", "cells": "Human amnion AV3 cells", "read by": "cytopathic effect", "endpoint": "inhibition", "dose": "10 µg/mL", "value": "14%"}
{"compound": "COC(=O)[C@]1(C)CCC[C@]2(C)C3=C[C@@H](O)[C@@]4(C(C)C)O[C@H]4[C@]3(O)CC[C@@H]12", "test": "culture", "agent": "Mycobacterium tuberculosis", "strain": "H37Rv", "read by": "BACTEC", "endpoint": "MIC", "value": "≥12.5 µg/mL"}
{"compound": "O=C(O)c1cc(I)c(O)c(I)c1", "test": "culture", "agent": "Mycobacterium tuberculosis", "strain": "H37Rv", "endpoint": "MIC", "value": "50 µg/mL"}
{"compound": "COC(=O)c1c(COC(=O)NC(C)C)c2n(c1C)CS(=O)(=O)C2", "test": "culture", "agent": "Mycobacterium tuberculosis", "strain": "H37Rv", "read by": "resazurin", "endpoint": "inhibition", "dose": "6.25 µg/mL", "value": "-50%"}
{"compound": "COc1ccc(N2CCN(c3cncc(-c4ccc(F)cc4F)n3)CC2)cc1OC", "test": "target", "agent": "Cytomegalovirus", "protein": "UL97 kinase", "endpoint": "IC50", "value": "<100 µM"}
{"compound": "ClC1c2ccccc2-c2nsnc2C1Cl", "test": "culture", "agent": "Mycobacterium tuberculosis", "strain": "H37Rv", "read by": "BACTEC", "endpoint": "inhibition", "dose": "6.25 µg/mL", "value": "0%"}
{"compound": "O=S(=O)(O)c1cc(O)c2c(O)c(N=Nc3ccccc3)c(S(=O)(=O)O)cc2c1", "test": "culture", "agent": "Adenovirus", "strain": "TYPE 3", "cells": "Human amnion AV3 cells", "read by": "cytopathic effect", "endpoint": "inhibition", "dose": "50 µg/mL", "value": "20%"}
{"compound": "O=C(O)CCC(=O)c1ccc2ccccc2c1", "test": "culture", "agent": "Mycobacterium tuberculosis", "strain": "H37Rv", "endpoint": "MIC", "value": ">100 µg/mL"}
{"compound": "O=C1c2c(O)ccc(O)c2C(=O)c2c(NCCCO)ccc(NCCCO)c21", "test": "culture", "agent": "Mycobacterium tuberculosis", "strain": "H37Rv", "read by": "BACTEC", "endpoint": "inhibition", "dose": "12.5 µg/mL", "value": "40%"}
{"compound": "CCN(CC)Cc1cc(Oc2ccc(O)c(CN(CC)CC)c2)ccc1O", "test": "culture", "agent": "Mycobacterium tuberculosis", "strain": "H37Rv", "endpoint": "MIC", "value": ">100 µg/mL"}
{"compound": "COc1cccc(-c2cncc(N3CCN(c4ccccn4)CC3)n2)c1", "test": "target", "agent": "Cytomegalovirus", "protein": "UL97 kinase", "endpoint": "IC50", "value": "<10 µM"}
{"compound": "Br.N=C(N)SCCCSC(=N)N", "test": "culture", "agent": "Mycobacterium tuberculosis", "strain": "H37Rv", "endpoint": "MIC", "value": ">100 µg/mL"}
{"compound": "C/C(=C\\C(=O)Nc1ccccc1)Nc1c(C)n(C)n(-c2ccccc2)c1=O", "test": "culture", "agent": "Mycobacterium tuberculosis", "strain": "H37Rv", "read by": "BACTEC", "endpoint": "MIC", "value": "≥12.8 µg/mL"}
{"compound": "CC(=O)CC(=O)Nc1ccc(O)cc1", "test": "culture", "agent": "Mycobacterium tuberculosis", "strain": "H37Rv", "endpoint": "MIC", "value": ">100 µg/mL"}
{"compound": "CC(C)(CO)NCC(C)(C)NC(Cc1ccccc1Cl)c1ccccc1.Cl.Cl", "test": "culture", "agent": "Mycobacterium tuberculosis", "strain": "H37Rv", "read by": "BACTEC", "endpoint": "inhibition", "dose": "12.8 µg/mL", "value": "11%"}
{"compound": "Nc1ccc2c(C(=O)O)cc(-c3ccccc3O)nc2n1", "test": "culture", "agent": "Mycobacterium tuberculosis", "strain": "H37Rv", "endpoint": "MIC", "value": ">100 µg/mL"}
{"compound": "CCN(CC)Cc1cc(Nc2nc(/C=C/c3ccc(Cl)cc3)nc(Cl)c2-c2ccc(Cl)cc2)ccc1O", "test": "culture", "agent": "Mycobacterium tuberculosis", "strain": "H37Rv", "read by": "resazurin", "endpoint": "MIC", "value": "3.13 µg/mL"}
{"compound": "COc1cc(-c2ccc(N=Nc3ccc4c(S(=O)(=O)O)cc(S(=O)(=O)O)c(N)c4c3O)c(OC)c2)ccc1N=Nc1ccc2c(S(=O)(=O)O)cc(S(=O)(=O)O)c(N)c2c1O", "test": "culture", "agent": "Rhinovirus", "cells": "Human embryonic lung cells", "read by": "cytopathic effect", "endpoint": "inhibition", "dose": "5 µg/mL", "value": "0%"}
{"compound": "NC(=O)[C@H](O)[C@@H](O)[C@H](O)[C@H](O)CO", "test": "culture", "agent": "Mycobacterium tuberculosis", "strain": "H37Rv", "read by": "resazurin", "endpoint": "inhibition", "dose": "6.25 µg/mL", "value": "15%"}
{"compound": "CN(CCN(C)c1ccc(N)cc1)c1ccc(N)cc1.O=S(=O)(O)O", "test": "culture", "agent": "Mycobacterium tuberculosis", "strain": "H37Rv", "endpoint": "MIC", "value": "100 µg/mL"}
{"compound": "O=C(O)c1nccnc1C(=O)O", "test": "culture", "agent": "Mycobacterium tuberculosis", "strain": "H37Rv", "read by": "BACTEC", "endpoint": "MIC bound", "value": ">12.5 µg/mL"}
{"compound": "Cc1cc(-c2ccc(N=Nc3c(S(=O)(=O)O)cc4cc(S(=O)(=O)O)cc(N)c4c3O)c(C)c2)ccc1N=Nc1c(S(=O)(=O)O)cc2cc(S(=O)(=O)O)cc(N)c2c1O", "test": "culture", "agent": "Rhinovirus", "cells": "Human embryonic lung cells", "read by": "cytopathic effect", "endpoint": "inhibition", "dose": "5 µg/mL", "value": "0%"}
{"compound": "Cc1nc2ccc(-n3c(C)ccc3C)cc2nc1C", "test": "culture", "agent": "Mycobacterium tuberculosis", "strain": "H37Rv", "endpoint": "MIC", "value": "100 µg/mL"}
{"compound": "Oc1ccc(Br)cc1C1N(Cc2ccc(N(CCCl)CCCl)cc2Cl)CCCN1Cc1ccc(N(CCCl)CCCl)cc1Cl", "test": "culture", "agent": "Mycobacterium tuberculosis", "strain": "H37Rv", "read by": "BACTEC", "endpoint": "inhibition", "dose": "12.5 µg/mL", "value": "0%"}
{"compound": "Cc1nc(C)c(N2CCN(c3ccncc3)CC2)nc1-c1cc2ccccc2s1", "test": "target", "agent": "Cytomegalovirus", "protein": "UL97 kinase", "endpoint": "inhibition", "dose": "10 µM", "value": ">15%"}
{"compound": "CN(C)C(=S)SCN1C(=O)c2ccccc2C1=O", "test": "culture", "agent": "Mycobacterium tuberculosis", "strain": "H37Rv", "read by": "BACTEC", "endpoint": "inhibition", "dose": "128 µg/mL", "value": "100%"}
{"compound": "COc1ccc(Nc2ccc(OC)cc2)cc1", "test": "culture", "agent": "Mycobacterium tuberculosis", "strain": "H37Rv", "endpoint": "MIC", "value": ">100 µg/mL"}
{"compound": "COc1ccc(-c2cncc(N3CCN(c4cccc5[nH]ccc45)CC3)n2)cc1", "test": "target", "agent": "Cytomegalovirus", "protein": "UL97 kinase", "endpoint": "inhibition", "dose": "1 µM", "value": "<50%"}
{"compound": "CCOc1ccccc1NC(=O)c1cc2ccccc2cc1O", "test": "culture", "agent": "Mycobacterium tuberculosis", "strain": "H37Rv", "endpoint": "MIC", "value": ">100 µg/mL"}
{"compound": "COC(=O)Nc1ccc(NC(=O)c2cscn2)c(NC(=O)OC)n1", "test": "culture", "agent": "Mycobacterium tuberculosis", "strain": "H37Rv", "read by": "BACTEC", "endpoint": "inhibition", "dose": "12.5 µg/mL", "value": "-35%"}
{"compound": "Cc1cccc(NCC(N)=O)c1", "test": "culture", "agent": "Mycobacterium tuberculosis", "strain": "H37Rv", "endpoint": "MIC", "value": ">100 µg/mL"}
{"compound": "CCc1c2oc(C(=O)c3ccc(Cl)cc3)cc2n2ccccc12", "test": "culture", "agent": "Mycobacterium tuberculosis", "strain": "H37Rv", "read by": "BACTEC", "endpoint": "inhibition", "dose": "12.5 µg/mL", "value": "-11%"}
{"compound": "CCN(CC)CCOC(N)=O", "test": "culture", "agent": "Mycobacterium tuberculosis", "strain": "H37Rv", "endpoint": "MIC", "value": ">100 µg/mL"}
{"compound": "[CH3][Sn]([CH3])([Cl])[Br].c1cnc2c(c1)ccc1cccnc12", "test": "culture", "agent": "Mycobacterium tuberculosis", "strain": "H37Rv", "read by": "BACTEC", "endpoint": "inhibition", "dose": "12.5 µg/mL", "value": "98%"}
{"compound": "O=C1C(Cl)=C(Cl)C(=O)c2ccccc21", "test": "culture", "agent": "Mycobacterium tuberculosis", "strain": "H37Rv", "endpoint": "MIC", "value": "100 µg/mL"}
{"compound": "CC1=NN(C(=O)CC(=O)Nc2ccccc2F)C(=O)C1N=Nc1ccccc1[N+](=O)[O-]", "test": "culture", "agent": "Mycobacterium tuberculosis", "strain": "H37Rv", "read by": "BACTEC", "endpoint": "MIC", "value": "≥12.5 µg/mL"}
{"compound": "Fc1ccc(N2CCCCC2)c(NC(=S)c2ccncc2)c1", "test": "host protein", "protein": "Fms", "read by": "kinase activity", "endpoint": "inhibition", "dose": "10 µM", "value": "6%"}
{"compound": "CCC(C)(C)c1ccc(Nc2cc(=O)[nH][nH]2)cc1", "test": "culture", "agent": "Mycobacterium tuberculosis", "strain": "H37Rv", "endpoint": "MIC", "value": ">100 µg/mL"}

5 of the rows above, restated:

compound,test,agent,strain,cells,protein,read by,endpoint,dose,value
O=S(=O)([O-])c1ccc(O)c2ccccc12,culture,Herpes simplex virus,-,Human conjunctiva cells,-,cytopathic effect,inhibition,10 µg/mL,0%
O=S(=O)(O)c1cc(O)c2c(O)c(N=Nc3ccccc3)c(S(=O)(=O)O)cc2c1,culture,Adenovirus,TYPE 3,Human amnion AV3 cells,-,cytopathic effect,inhibition,50 µg/mL,20%
Br.N=C(N)SCCCSC(=N)N,culture,Mycobacterium tuberculosis,H37Rv,-,-,-,MIC,-,>100 µg/mL
CCOC(=O)c1ccc(Br)c([N+](=O)[O-])c1,culture,Mycobacterium tuberculosis,H37Rv,-,-,-,MIC,-,>100 µg/mL
Cc1ccc(C(=N)N)cc1.Cl,culture,Mycobacterium tuberculosis,H37Rv,-,-,-,MIC,-,>100 µg/mL